Measured values from several laboratories, pooled; numbers as filed in NIAID ChemDB.

All rows: tests in culture; organism: HIV-1

ECn: concentration that inhibits the pathogen or its effect by n%. An empty or dashed field is not shown. Lines come from different laboratories, so protocols vary.

compound	cell line	read-out	read by	setting	strain	mutations	result
CCO/N=C(\c1ccc(Br)cc1)C1CCN(C2(C)CCN(C(=O)c3c(C)cc[n+]([O-])c3C)CC2)CC1	PBMC	EC50	p24		ADA-M R5 CLADE B		0.003 µM
CCn1nc(Cc2ccc(C#N)cc2)cc1C1CCN(C[C@H]2CN([C@@H](C(=O)O)C(C)(C)C)C[C@@H]2c2cccc(F)c2)CC1	PBMC	EC50	p24	50% human serum	BaL		<0.0093 µM
CC(C)c1ccccc1-n1nnnc1SCC(=O)Nc1ccccc1Cl	MT-4	EC50	p24				<10 µM
CN1CC=C(CC2(CC3=CCN(C)CC3)C(=O)N(Cc3ccccc3)c3ccccc32)CC1	MT-2	EC50	cytopathic effect / XTT		IIIB		34 µM
Cc1cn([C@H]2C[C@H](N=[N+]=[N-])[C@@H](CO)O2)c(=O)[nH]c1=O	CEM + CEM-SS	EC50	cytopathic effect / XTT		214		0.009 µM
Cc1ccnc2c1NC(=O)c1cccnc1N2C1CC1	MAGI	EC50	β-galactosidase		NNRTI-resistant (RT V106I)	RT-V106I	0.15 µM
COC(=O)c1cccc(NC(=O)CSc2nnnn2-c2c(C)cc(C)cc2C)c1C	MT-4	EC50	p24				<10 µM
CCn1nc(Cc2cccnc2)cc1C1CCN(C[C@H]2CN([C@@H](C(=O)O)C(C)C)C[C@@H]2c2cccc(F)c2)CC1	HeLa	EC50	β-galactosidase	50% human serum	BaL		<0.3 µM
O=C(CSc1nnnn1-c1ccccc1-c1ccccc1)Nc1ccccc1[N+](=O)[O-]	MT-4	EC95	p24				<10 µM
CNC(=O)c1cc(C#N)cc(C(=O)c2cc(Cl)ccc2OCC(=O)Nc2ccc(S(N)(=O)=O)cc2C)c1	HeLa	EC50				K103N	0.98 µM
Nc1ccn([C@@H]2CS[C@H](CO)O2)c(=O)n1	PBMC	EC50	p24		NL4-3 WT		0.01 µM
CCn1nc(Cc2cccc3ccccc23)cc1C1CCN(C[C@H]2CN([C@@H](C(=O)O)C(C)(C)C)C[C@@H]2c2cccc(F)c2)CC1	HeLa	EC50	β-galactosidase	50% human serum	BaL		<0.011 µM
Cc1ccc(S(=O)(=O)N(CC(C)C)C[C@@H](O)[C@H](Cc2ccccc2)NC(=O)O[C@H]2CO[C@H]3OCC[C@H]32)cc1	MT-2	EC50	ATP		IIIB	ATV-P36 atazanavir-resistant mutant	0.0019 µM
Nc1ccn([C@@H]2CS[C@H](CO)O2)c(=O)n1	Primary T lymphocytes	EC50	p24 / ELISA			A62V V75I F77L F116Y Q151M	0.5 µM
Fc1cccc(F)c1C1SCc2nc3ccccc3n21	CEM	EC50	cytopathic effect / XTT		IIIB	RT-L100I	3.12 µM
Cc1cn([C@H]2C[C@H](N=[N+]=[N-])[C@@H](CO)O2)c(=O)[nH]c1=O	Primary T lymphocytes	EC90	p24 / ELISA			L74V	0.2 µM
CC(C)(C)NC(=O)[C@@H]1C[C@@H]2CCCC[C@@H]2CN1C[C@@H](O)[C@H](Cc1ccccc1)NC(=O)[C@H](CC(N)=O)NC(=O)c1ccc2ccccc2n1	MT-4	EC50	p24		NL4-3-P28 (PR M46I I84V)	PR-M46I I84V	<0.16 µM
Nc1ccn([C@@H]2CS[C@H](CO)O2)c(=O)n1	PBMC	EC50	p24		Ba-L Laboratory isolate		0.054 µM
S=C(NCCc1cccs1)Nc1ccc(Br)cn1	PBMC	EC50	p24		G190-6 Clinical isolate NRTI-resistant	RT-M41L D67N K70R T215Y K219Q	0.0005 µM
Cc1cn([C@H]2C[C@H](N=[N+]=[N-])[C@@H](CO)O2)c(=O)[nH]c1=O	PBMC	EC50	p24		Recombinant	RT-F116Y	0.001 µM
Cc1cc(C#Cc2cccc(N)c2)cc(C)c1Oc1ccnc(NC2CCN(Cc3ccc(S(N)(=O)=O)cc3)CC2)n1	MT-4	EC50	MTT		IIIB	K103N	0.023 µM
CC(C)=CCN1Cc2cccc3[nH]c(=S)n(c23)C[C@@H]1C	CEM + CEM-SS	EC50	cytopathic effect / XTT		UC38-R(RT-Y181C	RT-Y181C	1.8 µM
Cc1cc(S(N)(=O)=O)ccc1NC(=O)COc1ccc(Cl)cc1C(=O)c1cc(C#N)cc(OC(F)F)c1	HeLa	EC50				V106A	0.0059 µM
CC(C)CN(C[C@@H](O)[C@H](Cc1ccccc1)NC(=O)O[C@H]1CCOC1)S(=O)(=O)c1ccc(N)cc1	MT-2	EC50	p24 / ELISA		IIIB	I401T R409K D437N	0.0473 µM
O=C(CSc1nnnn1-c1cccc2ccccc12)Nc1ccc(Cl)cc1[N+](=O)[O-]	MT-4	EC50	p24				<10 µM
Cc1cc(S(N)(=O)=O)ccc1NC(=O)COc1ccc(Cl)cc1C(=O)c1cc(C#N)cc(C(N)=O)c1	HeLa	EC50				K103N	>2 µM
Cc1cn([C@H]2C[C@H](N=[N+]=[N-])[C@@H](CO)O2)c(=O)[nH]c1=O	PBMC	EC50	cytopathic effect / XTT		BaKi (syncytium-inducing)		0.001 µM
CN1CC=C(CC2(CC3=CCN(C)CC3)c3ccccc3-c3ccccc32)CC1	MT-2	EC50	cytopathic effect / XTT		IIIB		13 µM
Cc1cn([C@H]2C=C[C@@H](CO)O2)c(=O)[nH]c1=O	Primary T lymphocytes	EC50	p24 / ELISA			M184V	0.6 µM
CC(=O)c1cc(C#N)cc(C(=O)c2cc(Cl)ccc2OCC(=O)Nc2ccc(S(N)(=O)=O)cc2C)c1	HeLa	EC50				K103N	0.0013 µM
O=C1N(Cc2ccccc2)c2cscc2S(=O)(=O)N1Cc1ccccc1	MT-4	EC50	syncytia		ADP/141	RT-D67N K70R T215F K219Q	1.8 µM
Cc1ccnc2c1NC(=O)c1cccnc1N2C1CC1	MT-4	EC95				RT-M41L T215Y A98G	3 µM
C/C=C/CSc1cc(NC(=S)c2ccsc2C)ccc1Cl	CEM + CEM-SS	EC50	cytopathic effect / XTT		UC82-R (RT-Y181C)	RT-Y181C	>2 µM
Cc1ccnc2c1NC(=O)c1cccnc1N2C1CC1	CEM	EC50	syncytia			RT-V106A	3 µM
Cc1cc(C#Cc2ccccc2N)cc(C)c1Oc1ccnc(Nc2ccc(C#N)cc2)n1	MT-4	EC50	MTT		IIIB	Y188L	>8.88 µM
CCOP(=O)(COc1ccc(C[C@H](NC(=O)O[C@H]2CO[C@H]3OCC[C@H]32)[C@H](O)CN(CC(C)C)S(=O)(=O)c2ccc(OC)cc2)cc1)OCC	MT-2	EC50	p24 / ELISA		IIIB	K112M K113E V128I	0.008 µM
CCN1CC=C(CC2(CC3=CCN(CC)CC3)C(=O)N(c3ccccc3)c3ccccc32)CC1	MT-2	EC50	cytopathic effect / XTT		IIIB		3.8 µM
Cc1c(O)cccc1C(=O)N[C@@H](CSc1ccccc1)[C@H](O)CN1C[C@H]2CCCC[C@H]2C[C@H]1C(=O)NC(C)(C)C	PBMC	EC50	p24		Ba-L Laboratory isolate		0.003 µM
Cc1c(C#N)cc(C(F)F)cc1Oc1c(C(F)(F)C(F)F)ncn(Cc2cc(F)c[nH]c2=O)c1=O	MT4-GFP	EC50	GFP				0.0397 µM
CC(C)(C)NC(=O)[C@@H]1C[C@@H]2CCCC[C@@H]2CN1C[C@@H](O)[C@H](Cc1ccccc1)NC(=O)[C@H](CC(N)=O)NC(=O)c1ccc2ccccc2n1	MT-4	EC95	p24		NL4-3	PR-M46I	0.025 µM
CCN1C(=O)N(Cc2ccccc2)S(=O)(=O)c2cscc21	MT-4	EC50	syncytia		IIIB		8.7 µM
Cc1cc(C)c(-n2nnnc2SCC(=O)Nc2ccccc2C(F)(F)F)c(C)c1	MT-4	EC95	p24				<10 µM
N#CCN1C(=O)N(Cc2ccccc2)S(=O)(=O)c2cscc21	MT-4	EC50	syncytia		MN		1.5 µM
CCn1nc(Cc2cccnc2)cc1C1CCN(C[C@H]2CN([C@@H](C(=O)O)C3CCCCC3)C[C@@H]2c2cccc(F)c2)CC1	HeLa	EC50	β-galactosidase		BaL		<0.0004 µM
O=C1N(Cc2ccc(CO)cc2)[C@H](Cc2ccccc2)[C@H](O)[C@@H](O)[C@@H](Cc2ccccc2)N1Cc1ccc(CO)cc1	MT-4	EC50	p24		NL4-3	PR-M46I L63P V82T I84V	<3 µM
Cc1cc(C)c(-n2nnnc2SCC(=O)Nc2ccc(F)cc2[N+](=O)[O-])c(C)c1	MT-4	EC50	p24				<10 µM
O=S1(c2ccccc2)=NC(=S)Nc2cc(Cl)ccc21	CEM + CEM-SS	EC50	cytopathic effect / XTT		IIIB		23 µM
Cc1ccnc2c1NC(=O)c1cccnc1N2C1CC1	HT4 + HT4 LacZ-1	EC50	plaque count		HXB41L/215Y(	RT-M41L T215Y	0.05 µM
Cc1cc(S(N)(=O)=O)ccc1NC(=O)COc1ccc(Cl)cc1C(=O)c1cc(C#N)cc(C(=O)N2CCOCC2)c1	HeLa	EC50				V106A	>2 µM
COc1ccc(S(=O)(=O)N(CC(C)C)C[C@@H](O)[C@H](Cc2ccccc2)NC(=O)O[C@H]2CO[C@H]3OCC[C@H]32)cc1	PBMC	EC50	p24		Clinical isolate	PR-L10I V11I T12E I15V L19I R41K M46L L63 A71T V82A L90M	0.0016 µM
O=C1N(c2ccccc2)c2ccccc2C1(CCc1cccnc1)CCc1cccnc1	MT-2	EC50	plaque count		RF		<10 µM
Fc1cccc(F)c1[C@H]1SCc2nc3ccccc3n21	MT-4	EC50	cytopathic effect		IIIB		0.55 µM
CCn1nc(Cc2ccc(OC3CC3)cc2)cc1C1CCN(C[C@H]2CN([C@@H](C(=O)O)C(C)C)C[C@@H]2c2cccc(F)c2)CC1	HeLa	EC50	β-galactosidase	50% human serum	BaL		<0.3 µM
Cc1cc(C)c(-n2nnnc2SCC(=O)Nc2cc(C)ccc2Cl)c(C)c1	MT-4	EC95	p24				<10 µM
CC(C)(C)NC(=O)[C@@H]1C[C@@H]2CCCC[C@@H]2CN1C[C@@H](O)[C@H](Cc1ccccc1)NC(=O)[C@H](CC(N)=O)NC(=O)c1ccc2ccccc2n1	PBMC	EC50	p24		Clinical isolate	PR-L10I V11I T12E I15V L19I R41K M46L L63 A71T V82A L90M	0.033 µM
O=C1N(c2ccccc2)c2ccccc2C1(Cc1ncc[nH]1)Cc1ncc[nH]1	MT-2	EC50	cytopathic effect / XTT		IIIB		4.1 µM
CCCOc1ccc(Cc2cc(C3CCN(C[C@H]4CN([C@@H](C(=O)O)C5CCCCC5)C[C@@H]4c4cccc(F)c4)CC3)n(CC)n2)cc1	HeLa	EC50	β-galactosidase	50% human serum	BaL		<0.1 µM
Fc1cccc(F)c1C1SCc2nc3ccccc3n21	CEM + CEM-SS	EC50	cytopathic effect / XTT		G		1.115 µM
CCn1nc(Cc2ccc(OCC(F)(F)F)cc2)cc1C1CCN(C[C@H]2CN([C@@H](C(=O)O)C(C)(C)C)C[C@@H]2c2cccc(F)c2)CC1	HeLa	EC50	β-galactosidase	50% human serum	BaL		<0.1 µM
Cc1ccnc2c1NC(=O)c1cccnc1N2C1CC1	CEM + CEM-SS	EC50	cytopathic effect / XTT		NL4-3 (RT K103N)	RT-K103N	>2 µM
Cc1cc(C)c(-n2nnnc2SCC(=O)Nc2cccc(Cl)c2Cl)c(C)c1	MT-4	EC50	p24				<10 µM
Cc1cc(S(N)(=O)=O)ccc1NC(=O)COc1ccc(Cl)cc1C(=O)c1cc(C#N)cc(C(=O)N2CCC2)c1	HeLa	EC50				WTRVA	0.018 µM
Cc1cc(C#Cc2cccnc2)cc(C)c1Oc1ccnc(Nc2ccc(C#N)cc2)n1	MT-4	EC50	MTT		IIIB	K103N	0.01 µM
Cc1ccc(-c2ccc3c(c2)C=C(C(=O)Nc2ccc(C[N+](C)(C)C4CCOCC4)cc2)CCC3)cc1	PBMC	EC50	antigen		SF162 R5		>1 µg/mL
CC[C@H](C)[C@H](C(=O)O)N1C[C@H](CN2CCC(c3cc(Cc4cccc(OC)c4)nn3CC)CC2)[C@@H](c2cccc(F)c2)C1	HeLa	EC50	β-galactosidase	50% human serum	BaL		<0.1 µM
O=C1N(c2ccccc2)c2ccccc2C1(CCCc1cccnc1)CCCc1cccnc1	MT-2	EC50	cytopathic effect / XTT		IIIB		1.9 µM
O=C1N(Cc2ccc(CO)cc2)[C@H](Cc2ccccc2)[C@H](O)[C@@H](O)[C@@H](Cc2ccccc2)N1Cc1ccc(CO)cc1	PBMC	EC50	p24		HXB2		0.018 µM
CCn1nc(Cc2ccc(Cl)cc2)cc1C1CCN(C[C@H]2CN([C@@H](C(=O)O)C(C)C)C[C@@H]2c2cccc(F)c2)CC1	HeLa	EC50	β-galactosidase		BaL		<0.0037 µM
O=S1(c2ccccc2)=NC(=S)Nc2ccccc21	PBL	EC50	RT activity		RF		0.04 µM
Cc1cc(C#Cc2ccc(C(F)(F)F)cc2)cc(C)c1Oc1ccnc(Nc2ccc(C#N)cc2)n1	MT-4	EC50	MTT		IIIB	Y181C	>7.353 µM
CC(=O)Nc1cc(C#N)cc(C(=O)c2cc(Cl)ccc2OCC(=O)Nc2ccc(S(N)(=O)=O)cc2C)c1	HeLa	EC50				Y181C	0.14 µM
Fc1cccc(F)c1[C@@H]1SCc2nc3ccccc3n21	CEM	EC50	cytopathic effect / XTT		IIIB	RT-L100I	20.8 µM
Cc1occc1C(=S)Nc1ccc(Cl)c(/C=N/OC(C)(C)C)c1	U-937	EC50	cytopathic effect / XTT		IIIB		0.03 µM
Cc1ccnc2c1NC(=O)c1cccnc1N2C1CC1	PBMC	EC50	cytopathic effect / XTT	clinical isolate	CLADE F		0.2 µM

5 of the rows above, restated:

compound	cell line	read-out	read by	setting	strain	mutations	result
O=C(CSc1nnnn1-c1cccc2ccccc12)Nc1ccc(Cl)cc1[N+](=O)[O-]	MT-4	EC50	p24				<10 µM
Cc1occc1C(=S)Nc1ccc(Cl)c(/C=N/OC(C)(C)C)c1	U-937	EC50	cytopathic effect / XTT		IIIB		0.03 µM
CNC(=O)c1cc(C#N)cc(C(=O)c2cc(Cl)ccc2OCC(=O)Nc2ccc(S(N)(=O)=O)cc2C)c1	HeLa	EC50				K103N	0.98 µM
CCn1nc(Cc2ccc(OCC(F)(F)F)cc2)cc1C1CCN(C[C@H]2CN([C@@H](C(=O)O)C(C)(C)C)C[C@@H]2c2cccc(F)c2)CC1	HeLa	EC50	β-galactosidase	50% human serum	BaL		<0.1 µM
N#CCN1C(=O)N(Cc2ccccc2)S(=O)(=O)c2cscc21	MT-4	EC50	syncytia		MN		1.5 µM